From article PMC10385743

What was measured:
Conditions in all cases: CC50 (Huh5-2)/EC50
[1] = tested on: DENV serotype 2 (strain 16681) subgenomic replicon; type: cell-based, dengue virus
[2] = tested on: HCV GT 3a (strain S52) subgenomic replicon; type: cell-based, hepatitis C virus
[3] = tested on: HCV GT 4a (strain ED43) subgenomic replicon; type: cell-based, hepatitis C virus
[4] = tested on: YFV (strain 17D) subgenomic replicon; type: cell-based, yellow fever virus

SMILES | Huh7-D2 (DENV-2 Replicon) SI [1] | Huh7.5-3a(S52) (HCV Replicon 3a) SI [2] | Huh7.5-4a(ED43) (HCV Replicon 4a) SI [3] | Huh7-YF (YFV Replicon 17D) SI [4]
O=C(CN1C(=O)NC2(CCC(c3ccccc3)CC2)C1=O)NO (stereo not drawn) [Compound 36, N-Hydroxy-2-(2,4-dioxo-8-phenyl-1,3-diazaspiro [4.5]decan-3-yl) acetamide] | 16 | 101 | 193 | –
CN1C(=O)N(CC(=O)NO)C(=O)C12CCCCC2c1ccccc1 (stereo not drawn) [Compound 39, N-Hydroxy-2-(1-methyl-2,4-dioxo-6-phenyl-1,3-diazaspiro [4.5]decan-3-yl)acetamide] | 2 | – | – | –
O=C(CN1C(=O)N(Cc2ccccc2)C2(CCCCC2c2ccccc2)C1=O)NO (stereo not drawn) [Compound 42, N-Hydroxy-2-(1-benzyl-2,4-dioxo-6-phenyl-1,3-diazaspiro [4.5]decan-3-yl)acetamide] | 7 | – | 21 | 2
CN1C(=O)N(CC(=O)NO)C(=O)C12CCC(c1ccccc1)CC2 (stereo not drawn) [Compound 38, N-Hydroxy-2-(1-methyl-2,4-dioxo-8-phenyl-1,3-diazaspiro [4.5]decan-3-yl)acetamide] | 4 | 69 | 196 | –
CC(C(=O)NO)N1C(=O)NC2(CCC(c3ccccc3)CC2)C1=O (stereo not drawn) [Compound 49, N-(Hydroxy)-2-(2,4-dioxo-8-phenyl-1,3-diazaspiro [4.5]decan-3-yl)propanamide] | – | – | – | 1
CCN1C(=O)N(CC(=O)NO)C(=O)C12CCC(c1ccccc1)CC2 (stereo not drawn) [Compound 40, N-Hydroxy-2-(1-ethyl-2,4-dioxo-8-phenyl-1,3-diazaspiro [4.5]decan-3-yl)acetamide] | 15.62 | 20 | 34 | 1.59
CC1CCC2(NC(=O)N(CC(=O)NO)C2=O)c2ccccc21 [Compound 35, Ν-(Hydroxy)-2-((4R,4′R)/(4S,4′S)-4′-methyl-2,5-dioxo-3′,4′-dihydro-2′H-spiro[imidazolidine-4,1′-naphthalene]-1-yl)acetamide] | – | 260 | 488 | –
CC(C(=O)NO)N1C(=O)N(C)C2(CCC(c3ccccc3)CC2)C1=O (stereo not drawn) [Compound 53, N-(hydroxy)-2-(1-methyl-2,4-dioxo-8-phenyl-1,3-diazaspiro [4.5]decan-3-yl)propanamide] | 41 | – | 358 | –
CC1CCC2(NC(=O)N(CC(=O)NO)C2=O)c2ccccc21 [Compound 34, Ν-(hydroxy)-2-((4R,4′S)/(4S,4′R)-4′-methyl-2,5-dioxo-3′,4′-dihydro-2′H-spiro[imidazolidine-4,1′-naphthalene]-1-yl)acetamide] | – | 318 | 1429 | –
